Key:
[1] = tested on: M. grisea transformants generated using pBHt2-tk (ChGPD-HSVtk); experiment: Growth of HSVtk transformants in the presence of nucleoside analogs (M. grisea)
[2] = tested on: M. grisea 4091-5-8 transformants; experiment: Regeneration of transformants under direct selection with hygromycin B and F2dU (M. grisea); settings: 50 μM F2dU during regeneration with hygromycin B

SMILES | sensitivity of transformants [1] | effective concentration for completely blocking the growth ([1]; complete medium) | reduction of the number of transformants relative to that generated in the presence of 0 or 5 μM F2dU [2] | concentration needed to achieve the same degree of growth inhibition (complete block) ([1]; complete medium)
O=c1[nH]c(=O)n([C@H]2C[C@H](O)[C@@H](CO)O2)cc1F [F2dU, 5-fluoro-2′-deoxyuridine] | exhibited sensitivity | approximately 0.5 μM | 2 to 4 fold | 
Nc1nc(O)c2ncn(COC(CO)CO)c2n1 [Ganciclovir] | exhibited sensitivity |  |  | 1 mM

Reference: US20050181509A1 (priority 2004, published 2005)
